Data on one sequence can be found in ChEMBL document CHEMBL4118244, “Design, synthesis and biological evaluation of benzofuran appended benzothiazepine derivatives as inhibitors of butyrylcholinesterase and antimicrobial agents” (Bioorg Med Chem, 2018).

This assay concerns Shigella dysenteriae. Description: Antibacterial activity against Shigella dysenteriae PTCC 1188. The class given is functional.

Sequence GENTAMICIN returned an MIC of 0.5 µg/mL.
